Measurements reported in PMC5845869 (Frontiers in Microbiology, 2018).

Test: general procedure: hybrid (solid and solution phase) peptide synthesis; Cys-SH resin (thioester fragment Fr-2t); N,N'-dicyclohexylcarbodiimide/hydroxybenzotriazole
Conditions: several disulfide bridges, sequence written open

## IATSPYYACNCPNNCKHKKGSGCKYHSGPSDKSKVISGKCEWQGGQLNCIAT
Coupling step
  step yield: 40–42%
Oxidative folding step
  oxidative folding yield: 23–25%
Whole synthesis, overall
  isolated yield: 2–3%

End groups of sequences in plain letters are not given here.
